# Measurements from article PMC11559043.
# B1: PA28γ, endogenous in Huh7OK1 cells, P61289 1-254 (natural protein)
# chain: MASLLKVDQEVKLKVDSFRERITSEAEDLVANFFPKKLLELDSFLKEPILNIHDLTQIHSDMNLPVPDPILLTNSHDGLDGPTYKKRRLDECEEAFQGTKVFVMPNGMLKSNQQLVDIIEKVKPEIRLLIEKCNTVKMWVQLLIPRIEDGNNFGVSIQEETVAELRTVESEAASYLDQISRYYITRAKLVSKIAKYPHVEDYRRTVTEIDEKEYISLRLIISELRNQYVTLHDMILKNIEKIKRPRSSNAETLY
# B2: PA28γ expressed from pEF PA28γ, P61289 1-254 (natural protein)
# chain: B1 chain
# Tests used:
# [1] = molecular target: T1, PA28γ, endogenous in Huh7OK1 cells (human (endogenous in Huh7OK1)), P61289; experiment: native gel or EMSA; settings: remark: other sources report otherwise
# T1 chain: B1 chain
# [2] = molecular target: T2, PA28γ expressed from pEF PA28γ, P61289; experiment: native gel or EMSA; settings: remark: other sources report otherwise
# T2 chain: B1 chain
Binder,stoichiometry N [1],stoichiometry N [2]
B1,7,–
B2,–,7
